Literature values as cited in article PMC11768433 (Viruses, 2024).
Read-outs that look alike come from different tables or passages of the source.

Tests used:
SARS-CoV-2 = test system: SARS-CoV-2; set-up: method as in Ref.35216177; settings: SARS-CoV-2 replication, Vero cells; ref Ref.35216177
[1] = test system: influenza virus(H1N1,VR-1894); set-up: method as in Ref.35216177; settings: influenza H1N1 VR-1894 replication, MDKC cells; ref Ref.35216177
HIV-1 integrase = target: HIV-1 integrase; set-up: method as in Ref.12054767; settings: 3′-end processing catalyzed by HIV-1 integrase; ref Ref.12054767
HIV-1 = test system: HIV-1; set-up: method as in Ref.17448989; settings: HIV-1 infection, P4-CCR5 cells; ref Ref.17448989
HIV Pseudovirus (PsV) = test system: HIV Pseudovirus (PsV); set-up: method as in Ref.26026377; settings: HIV PsV infection, CD4+ T cells; ref Ref.26026377
HIV-1 Vif proteins = test system: HIV-1 Vif proteins; set-up: method as in Ref.12480936; settings: Vif-Vif binding; ref Ref.12480936
HIV-1 HXB2 = test system: HIV-1 HXB2; set-up: method as in Ref.30089693; settings: HIV-1 HXB2 cell-cell fusion, TZM-bl; ref Ref.30089693
HIV-1 NL4-3 pseudovirus = test system: HIV-1 NL4-3 pseudovirus; set-up: method as in Ref.30089693; settings: TZM-bl, ref Ref.30089693
HIV-1 JRCSF = test system: HIV-1 JRCSF; set-up: method as in Ref.30089693; settings: HIV-1 JRCSF infection, TZM-bl; ref Ref.30089693
[2] = test system: T-20 sensitive HIV-1(NL4-3D36G); set-up: method as in Ref.30089693; settings: T-20 sensitive NL4-3D36G, TZM-bl; ref Ref.30089693
HIV-2(ROD,ST) [3] = test system: HIV-2(ROD,ST); set-up: method as in Ref.30089693; settings: TZM-bl, ref Ref.30089693
[4] = test system: HIV-1(3 A, 13 B, 7 C, 1 G, 1 A/C, 5 A/E, 6 B/C pseudovirus subtypes); set-up: method as in Ref.30089693; settings: panel of HIV-1 pseudovirus subtypes, TZM-bl; ref Ref.30089693
[5] = test system: human immunodeficiency virus type 1 (HIV-1); set-up: method as in Ref.15780876; settings: HIV-1 infection, Vero P4-CCR5 cells; ref Ref.15780876
HIV-1 JR-CSF(R5) = test system: HIV-1 JR-CSF(R5); set-up: method as in Ref.30867304; settings: HIV-1 JR-CSF(R5) replication, TZM-bl; ref Ref.30867304
HIV-1 89.6(R5X4) = test system: HIV-1 89.6(R5X4); set-up: method as in Ref.30867304; settings: HIV-1 89.6(R5X4) replication, TZM-bl; ref Ref.30867304
HIV-1 pseudovirus = test system: HIV-1 pseudovirus; set-up: method as in Ref.30867304; settings: HIV-1 pseudovirus infection, TZM-bl; ref Ref.30867304
[6] = test system: T-20 sensitive HIV-1(NL4-3D36G); set-up: method as in Ref.30867304; settings: T-20 sensitive NL4-3D36G, TZM-bl; ref Ref.30867304
HIV-2(ROD,ST) [7] = test system: HIV-2(ROD,ST); set-up: method as in Ref.30867304; settings: TZM-bl, range, ref Ref.30867304
[8] = test system: HIV-1(1A,2B,1C,1G,1A/C,1A/E,1B/C subtype); set-up: method as in Ref.30867304; settings: cell-cell fusion HEK293T / TZM-bl, HIV-1 subtypes; ref Ref.30867304
[9] = test system: Influenza A virus(A/Hong Kong/483/97 ([HK/483] strain H5N1))
[10] = test system: Influenza A virus(A/Hong Kong/483/97 ([HK/483] strain H5N1)); remark: listed apart in the source

FVPWFSKFlXRIL [DRAVPe00396, DRAVP database entry, TL peptide]
IC50 (SARS-CoV-2): 770 nM | IC50 [1]: 4770 nM

FVPWFSKFlpRIL [DRAVPe00379, DRAVP database entry, TL peptide]
IC50 (SARS-CoV-2): > 50000 nM | IC90 (SARS-CoV-2): > 50000 nM

CFVPWFSKFlXRIL [DRAVPe00391, DRAVP database entry, TL peptide]
IC50 (SARS-CoV-2): 760 nM | IC50 [1]: 2550 nM

YQLLIRMIYANI [DRAVPe00104, DRAVP database peptide, target HIV-1 integrase]
IC50 (HIV-1 integrase): 11000 nM

LEAIPMSIPPEVKFNKPFVF [DRAVPe00192]
IC50 (HIV-1): 14800 ± 2560 nM

YQALIRMIYKNI [DRAVPe00097, DRAVP database peptide, target HIV-1 integrase]
IC50 (HIV-1 integrase): 165000 nM

FVPWFSKFlXRILC [DRAVPe00389, DRAVP database entry, TL peptide]
IC50 (SARS-CoV-2): 3180 nM | IC50 [1]: 5550 nM

FVPWFSKFlGRIL [DRAVPe00377, DRAVP database entry, TL peptide]
IC50 (SARS-CoV-2): 4620 nM

GLLSVLGSVVKHVIPHVVPVIAEHL [DRAVPe00360, DRAVP database peptide, target HIV]
IC50 (HIV Pseudovirus (PsV)): 3000 nM

LFYLVPGPGH [DRAVPe00094, DRAVP database peptide, target HIV-1 integrase]
IC50 (HIV-1 integrase): > 200000 nM

KVINPEPIVEPFMSKPFALF [DRAVPe00230]
IC50 (HIV-1): > 100000 nM

YQLAIRMIYKNI [DRAVPe00098, DRAVP database peptide, target HIV-1 integrase]
IC50 (HIV-1 integrase): 14000 nM

CGGFVPWFSKFlXRIL [DRAVPe00392, DRAVP database entry, TL peptide]
IC50 (SARS-CoV-2): 1020 nM | IC50 [1]: 6020 nM

SNQGGSPLPRSV [DRAVPe00127, DRAVP database peptide, target HIV-1 Vif proteins]
IC50 (HIV-1 Vif proteins): 7430 nM

QLLIRMI [DRAVPe00092, DRAVP database peptide, target HIV-1 integrase]
IC50 (HIV-1 integrase): > 200000 nM

LEAIPMSIPPEFLFGKPFVF [DRAVPe00223]
IC50 (HIV-1): 1340 ± 420 nM

WEQKIEELLKKAEEQQKKNEEELKKLEX [DRAVPe00785]
IC50 (HIV-1 HXB2): 0.013 ± 0.001 nM | IC50 (HIV-1 NL4-3 pseudovirus): 0.004 nM | IC50 (HIV-1 JRCSF): 0.005 ± 0.001 nM | IC50 [2]: < 0.01 nM | IC50 (HIV-2(ROD,ST) [3]): 0.06 to 0.34 nM | IC50 [4]: 0.017 nM

GLFSVLGAVAKHVLPHVVPVIAEKL [DRAVPe00355, DRAVP database peptide, target HIV]
IC50 (HIV Pseudovirus (PsV)): 2000 nM

FVPWFSKFlwRIL [DRAVPe00386, DRAVP database entry, TL peptide]
IC50 (SARS-CoV-2): 4070 nM

ALWMTLLKKVLKAAAKAALNAVLVGANA [DRAVPe01956, DRAVP database peptide, target HIV]
IC50 [5]: 2000 nM

IEELIKKSEEQQKKNEEELKKLEX [DRAVPe00656]
IC50 (HIV-1 HXB2): 0.085 ± 0.009 nM | IC50 (HIV-1 NL4-3 pseudovirus): 0.043 ± 0.009 nM | IC50 (HIV-1 JRCSF): 0.126 ± 0.063 nM | IC50 [4]: 0.144 nM

FVPWFSKFlxRIL [DRAVPe00382, DRAVP database entry, TL peptide]
IC50 (SARS-CoV-2): 1000 nM

YTSLIHSLIEESQNQQEKNEQELLELDX [DRAVPe00782]
IC50 (HIV-1 HXB2): 0.361 ± 0.06 nM | IC50 (HIV-1 NL4-3 pseudovirus): 0.392 ± 0.073 nM | IC50 (HIV-1 JRCSF): 0.384 ± 0.033 nM

YTSLIEELIKKSEEQQKKNEEELKKLEX [DRAVPe00783]
IC50 (HIV-1 HXB2): 0.021 ± 0.003 nM | IC50 (HIV-1 NL4-3 pseudovirus): 0.007 ± 0.001 nM | IC50 (HIV-1 JRCSF): 0.023 ± 0.002 nM | IC50 [2]: < 0.01 nM | IC50 (HIV-2(ROD,ST) [3]): 0.09 to 5.81 nM

LEAIPCSIPpCFLFNKPFVF [DRAVPe00227]
IC50 (HIV-1): 200 ± 40 nM

LEAIPMGIPpEVXFNKPFVF [DRAVPe00228]
IC50 (HIV-1): 280 ± 80 nM

WEQKIEELLKKAEEQQKKNEEELKKLEKX [DRAVPe00787]
IC50 (HIV-1 JR-CSF(R5)): 0.00454 ± 0.00142 nM | IC50 (HIV-1 89.6(R5X4)): 0.00475 ± 0.00083 nM | IC50 (HIV-1 pseudovirus): 0.00291 nM | IC50 [6]: 0.002 nM | IC50 (HIV-2(ROD,ST) [7]): 0.02 to 0.032 nM | IC50 [8]: 0.00855 nM

LEANIEELLKKAEEQQKKNEEELKKLEX [DRAVPe00784]
IC50 (HIV-1 HXB2): 0.021 ± 0.01 nM | IC50 (HIV-1 NL4-3 pseudovirus): 0.006 ± 0.001 nM | IC50 (HIV-1 JRCSF): 0.027 ± 0.005 nM | IC50 [2]: < 0.01 nM | IC50 (HIV-2(ROD,ST) [3]): 0.09 to 0.84 nM

FVPWFSKFlKRIL [DRAVPe00383, DRAVP database entry, TL peptide]
IC50 (SARS-CoV-2): 880 nM

FVPWFSKFlXRILGGC [DRAVPe00390, DRAVP database entry, TL peptide]
IC50 (SARS-CoV-2): 12100 nM | IC50 [1]: 21100 nM

GLFKVLGSVAKHLLPHVAPVIAEKL [DRAVPe00356, DRAVP database peptide, target HIV]
IC50 (HIV Pseudovirus (PsV)): 2500 nM

FVPWFSKFlWRIL [DRAVPe00385, DRAVP database entry, TL peptide]
IC50 (SARS-CoV-2): 880 nM

FVPWFSKFlkRIL [DRAVPe00384, DRAVP database entry, TL peptide]
IC50 (SARS-CoV-2): 4630 nM

LPLPAPSFHRTT [DRAVPe00128, DRAVP database peptide, target HIV-1 Vif proteins]
IC50 (HIV-1 Vif proteins): 4840 nM

LSELDDRADALQAGASQFETSAAKLKRKYWWKN [DRAVPe00111, DRAVP database peptide, target HIV-1 integrase]
IC50 (HIV-1 integrase): > 200000 nM

FVPWFSKFlXRIL [DRAVPe00380, DRAVP database entry, TL peptide]
IC50 (SARS-CoV-2): 6720 nM

LEAIPCSIPPCVFFNKPFVF [DRAVPe00221]
IC50 (HIV-1): 930 ± 50 nM

QLLIRMIYKNILFYLVPGPGHGAEPERRNIKYL [DRAVPe00090, DRAVP database peptide, target HIV-1 integrase]
IC50 (HIV-1 integrase): 9000 nM

KPKQIKPPLPSV [DRAVPe00130, DRAVP database peptide, target HIV-1 Vif proteins]
IC50 (HIV-1 Vif proteins): 17400 nM

RRKKAAVALLPAVLLALLAP [DRAVPe01891]
IC50 [9]: 8000 nM | IC50 [10]: 4500 nM

QLLIRMIYKNI [DRAVPe00109, DRAVP database peptide, target HIV-1 integrase]
IC50 (HIV-1 integrase): 21000 nM

IEELLKKAEEQQKKNEEELKKLEX [DRAVPe00660]
IC50 (HIV-1 HXB2): 0.014 ± 0.003 nM | IC50 (HIV-1 NL4-3 pseudovirus): 0.008 ± 0.003 nM | IC50 (HIV-1 JRCSF): 0.007 ± 0.002 nM | IC50 [2]: < 0.01 nM | IC50 (HIV-2(ROD,ST) [3]): 0.23 to 0.75 nM | IC50 [4]: 0.035 nM

FVPWFSKFlPRIL [DRAVPe00378, DRAVP database entry, TL peptide]
IC50 (SARS-CoV-2): 4820 nM

YQLLIRPIYKNI [DRAVPe00110, DRAVP database peptide, target HIV-1 integrase]
IC50 (HIV-1 integrase): > 200000 nM

LEAIPCSIPPCFAFNKPFVF [DRAVPe00222]
IC50 (HIV-1): 270 ± 40 nM

ALWKTLLKKVLKAAAK [DRAVPe01957, DRAVP database peptide, target HIV]
IC50 [5]: 28000 nM
